Results: ChEMBL document CHEMBL5038580 (J Med Chem, 2022)

Columns and labels:
[1] = tested on: Middle East respiratory syndrome-related coronavirus; experiment: Antiviral activity against MERS-CoV assessed as inhibition of S protein mediated cell-cell fusion in Huh-7 cells measured after 2 hrs by inverted fluorescence microscopy
MT2 = experiment: Cytotoxicity against human MT2 cells incubated for 48 hrs by CCK-8 assay; conditions: mt2, 48 h
RD = experiment: Cytotoxicity against human RD cells incubated for 48 hrs by CCK-8 assay

| Structure (SMILES) | IC50 [1] [µM] | CC50 (MT2) [µM] | CC50 (RD) [µM] |
| --- | --- | --- | --- |
| CC[C@H](C)[C@H](NC(=O)[C@H](Cc1ccc(O)cc1)NC(=O)[C@H](CO)NC(=O)[C@H](CCC(=O)O)NC(=O)[C@H](CCC(=O)O)NC(=O)[C@H](CC(C)C)NC(=O)[C@H](CCCCN)NC(=O)[C@H](CCCCN)NC(=O)[C@@H](NC(=O)[C@@H](NC(=O)[C@H](CCC(=O)O)NC(=O)[C@H](CCC(=O)O)NC(=O)[C@H](CC(C)C)NC(=O)[C@H](CCCCN)NC(=O)[C@H](CCCCN)NC(=O)[C@H](CCSC)NC(=O)[C@H](CCC(=O)O)NC(=O)[C@H](Cc1ccc(O)cc1)NC(=O)[C@H](CCC(=O)O)NC(=O)[C@H](CC(C)C)NC(=O)[C@H](CC(=O)O)NC(=O)[C@H](CC(C)C)NC(=O)[C@H](CC(C)C)NC(=O)[C@@H](NC(=O)[C@@H](NC(=O)[C@H](CC(N)=O)NC(=O)[C@@H](NC(=O)[C@H](CCC(N)=O)NC(=O)[C@@H](NC(=O)[C@H](CC(C)C)NC(=O)[C@H](CO)NC(C)=O)[C@@H](C)O)[C@@H](C)CC)[C@@H](C)O)[C@@H](C)O)C(C)C)C(C)C)C(=O)N[C@@H](CC(=O)O)C(=O)N[C@@H](CC(C)C)C(=O)N[C@@H](CCCCN)C(=O)N[C@@H](CCC(=O)O)C(=O)N[C@@H](CC(C)C)C(N)=O | 0.85 |  |  |
| CC[C@H](C)[C@H](NC(C)=O)C(=O)N[C@@H](CCC(=O)O)C(=O)N[C@@H](CCC(=O)O)C(=O)N[C@H](C(=O)N[C@H](C(=O)N[C@@H](CCCCN)C(=O)N[C@@H](CCCCN)C(=O)N[C@H](C(=O)N[C@@H](Cc1c[nH]cn1)C(=O)N[C@@H](Cc1c[nH]cn1)C(=O)N[C@H](C(=O)N[C@@H](CCC(=O)O)C(=O)N[C@@H](CCCNC(=N)N)C(=O)N[C@@H](C)C(=O)N[C@H](C(=O)N[C@@H](CCC(=O)O)C(=O)N[C@@H](C)C(=O)N[C@@H](CCC(N)=O)C(=O)N[C@@H](CCC(N)=O)C(=O)N[C@@H](CCCCN)C(=O)N[C@@H](CC(C)C)C(=O)N[C@@H](CC(C)C)C(=O)N[C@@H](CCC(N)=O)C(=O)N[C@@H](CC(C)C)C(=O)N[C@H](C(=O)N[C@H](C(=O)N[C@@H](Cc1c[nH]c2ccccc12)C(=O)NCC(=O)N[C@H](C(=O)N[C@@H](CCCCN)C(=O)N[C@@H](CCC(N)=O)C(=O)N[C@@H](CC(C)C)C(=O)N[C@@H](CCC(N)=O)C(=O)N[C@@H](C)C(=O)N[C@@H](CCCNC(=N)N)C(=O)N[C@H](C(=O)N[C@@H](CC(C)C)C(N)=O)[C@@H](C)CC)[C@@H](C)CC)C(C)C)[C@@H](C)O)[C@@H](C)CC)[C@@H](C)CC)[C@@H](C)CC)C(C)C)[C@@H](C)CC | > 20 | > 10 | > 40 |
